Compound potency records, mixed from different reports. Data source: NIAID ChemDB in PubChem.

Shared fields: enzyme or target tests

ICn is the concentration giving n% inhibition. Fold resistance has wild type as its base. An empty or dashed field is not shown. Inhibition is in % at the dose shown (toxicity tests: loss of growth or viability). Neighbouring rows are from separate reports.

smiles	mutations	species	strain	method	endpoint	target	dose	result
CC1(C)N=C(N)N=C(N)N1c1cccc(CCCCc2cccc(N)c2)c1	-	Toxoplasma gondii	RH	-	IC50	DHFR	-	0.015 µM
O=c1[nH]cc(Cc2ccccc2)c(=O)[nH]1	-	Toxoplasma gondii	RH	-	IC50	Uracil phosphoribosyltransferase	-	>2000 µM
CC(C)=CCOc1cc(NC(=S)c2ccoc2C)ccc1Cl	RT-N137Y	HIV	-	nucleotide incorporation / radiometric	fold resistance	Reverse transcriptase	-	0.18
CCc1nc(N)nc(N)c1-c1ccc(Cl)c([N+](=O)[O-])c1	-	Toxoplasma gondii	RH	-	IC50	DHFR	-	0.013 µM
O=c1cn[nH]c(=O)[nH]1	-	Toxoplasma gondii	RH	-	inhibition	Uracil phosphoribosyltransferase	2000 µM	<5%
COc1ccc2c(c1)CCc1nc(N)nc(N)c1-2	-	Toxoplasma gondii	RH	-	IC50	DHFR	-	2.5 µM
C=CCN(C(=O)OCc1ccc([N+](=O)[O-])cc1)C1CCN(CC[C@](C)(CN(C)S(=O)(=O)c2ccccc2)c2ccccc2)CC1	CCR5-E283A	-	-	radiometric	fold resistance	CCR5	-	588
O=C(Nc1nnc(NCc2ccc(Cl)c(Cl)c2)s1)c1cccc([N+](=O)[O-])c1	-	Human cytomegalovirus	-	-	IC50	Polymerase	-	>25 µM
O=C1CCCC(=O)N1	-	Toxoplasma gondii	RH	-	inhibition	Uracil phosphoribosyltransferase	2000 µM	<10%
CCN(C(=O)OCc1ccccc1)C1CCN(CC[C@](C)(CN(C)S(=O)(=O)c2ccccc2)c2ccccc2)CC1	CCR5-Y108A	-	-	radiometric	fold resistance	CCR5	-	252.5
CC1(C)N=C(N)N=C(N)N1c1ccc(C(=O)Nc2cccc(S(=O)(=O)F)c2)cc1.CCS(=O)(=O)O	-	Toxoplasma gondii	RH	-	IC50	DHFR	-	69 µM
O=c1ccn(C2CCCCC2)c(=O)[nH]1	-	Toxoplasma gondii	RH	-	IC50	Uracil phosphoribosyltransferase	-	>2000 µM
CCOc1ccc2ccccc2c1C(=O)Nc1nnc(NC2CCCc3ccccc32)s1	-	Human cytomegalovirus	-	-	IC50	Polymerase	-	<25 µM
NS(=O)(=O)c1c[nH]c(=O)[nH]c1=O	-	Toxoplasma gondii	RH	-	inhibition	Uracil phosphoribosyltransferase	2000 µM	<5%
Nc1nc2c(ncn2[C@H]2CC[C@@H](COP(=O)(O)OP(=O)(O)OP(=O)(O)O)O2)c(=O)[nH]1	RT-P95A	HIV	-	nucleotide incorporation / radiometric	fold resistance	Reverse transcriptase	-	28
O=C(c1ccccc1)N1C[C@H](CN2CCC(c3ccccc3)CC2)[C@@H](c2ccccc2)C1	CCR5-Y108A	-	-	radiometric	fold resistance	CCR5	-	16.5
Cc1cn([C@@H]2O[C@H](CO[Si](C)(C)C(C)(C)C)C3(OS(=O)(=O)C=C3N)[C@H]2O[Si](C)(C)C(C)(C)C)c(=O)n(C)c1=O	RT-N137Q	HIV	-	nucleotide incorporation / radiometric	IC50	Reverse transcriptase	-	0.8 µM
O=C(Nc1nnc(NCc2ccccn2)s1)c1c(Cl)cccc1Cl	-	Human cytomegalovirus	-	-	IC50	Polymerase	-	>25 µM
O=C(O)c1c[nH]c(=O)[nH]c1=O	-	Toxoplasma gondii	RH	-	inhibition	Uracil phosphoribosyltransferase	2000 µM	<5%
CCCCCCCCCCCNc1nnc(NC(=O)c2ccc(Cl)c(Cl)c2)s1	-	Human cytomegalovirus	-	-	IC50	Polymerase	-	>25 µM
O=C(O)c1[nH]c(=O)[nH]c(=O)c1[N+](=O)[O-]	-	Toxoplasma gondii	RH	-	inhibition	Uracil phosphoribosyltransferase	2000 µM	<5%

Repeating the first 2 entries:

smiles | mutations | species | strain | method | endpoint | target | dose | result
CC1(C)N=C(N)N=C(N)N1c1cccc(CCCCc2cccc(N)c2)c1 | - | Toxoplasma gondii | RH | - | IC50 | DHFR | - | 0.015 µM
O=c1[nH]cc(Cc2ccccc2)c(=O)[nH]1 | - | Toxoplasma gondii | RH | - | IC50 | Uracil phosphoribosyltransferase | - | >2000 µM